Results of unrelated studies side by side (data: NIAID ChemDB).

Shared fields: tests in culture; organism: Hepatitis C virus; read-out: EC50

Neighbouring rows are from separate reports.

{"SMILES": "COc1ccc2c(c1)C=C(C(=O)N1C3CCC1CN(C)C3)Cn1c-2c(C2CCCCC2)c2ccc(C(=O)NS(=O)(=O)C(C)C)cc21", "read by": "replicon", "value": "0.001–0.5 µM"}
{"SMILES": "CCOCCN(C(=O)C1CCC(C)CC1)c1cc(-c2ccc(-c3cn4ccsc4n3)cc2)sc1C(=O)O", "strain": "1b", "read by": "replicon / ELISA", "value": "0.01–0.049 µM"}
{"SMILES": "COC(=O)NC[C@H](C(=O)N1CCCC1c1ncc(-c2ccc(-c3ccc(-c4cnc(C5CCCN5C(=O)[C@@H](NC(=O)OC)C(C)C)[nH]4)cc3)cc2)[nH]1)C(C)C", "strain": "HCV4a-23", "value": "0.000013 µM"}
{"SMILES": "CCCCOC(=O)[C@@H](C)NP(=O)(/C=C/[C@@H]1C[C@@H](O)[C@H](n2ccc(N)nc2=O)O1)N[C@H](C)C(=O)OCCCC", "read by": "replicon", "value": ">100 µM"}
{"SMILES": "Cc1cc(C)n2nc(CC3=C(O)CC(CCc4ccc(C(C)(C)C#N)c(F)c4)(C4CCCC4)OC3=O)nc2n1", "strain": "WT", "read by": "replicon", "value": "0.018 µM"}
{"SMILES": "CCCCOC(=O)[C@H](C)NP(=O)(/C=C/[C@H]1O[C@@H](n2cnc3c(N)ncnc32)[C@@H](F)[C@@H]1O)N[C@@H](C)C(=O)OCCCC", "read by": "replicon", "value": "<10 µM"}
{"SMILES": "COc1ccc2c(c1)C=C(C(=O)N1C3CCC1CN(C)C3)Cn1c-2c(C2CCCCC2)c2ccc(C(=O)NS(=O)(=O)N(C)C)cc21", "read by": "replicon", "value": "0.001–0.5 µM"}
{"SMILES": "CC1CCC(C(=O)N(c2cc(-c3ccc(NC(=O)c4cscn4)cc3)sc2C(=O)[O-])C(C)C)CC1.[NH4+]", "strain": "1b", "read by": "replicon", "value": "<0.5 µM"}
{"SMILES": "CCCCCCCC(=O)CCCCCC/C=C/[C@H](C(=O)N[C@@H](Cc1ccc(OCCC(C)C)cc1)C(=O)O)[C@@](O)(CC(=O)O)C(=O)O", "value": "0.0019 µM"}
{"SMILES": "Cc1cc2c(cc1F)c(C#N)c(-c1ccc(S(=O)(=O)N[C@@H](C)C(F)(F)F)cn1)n2-c1ncccn1", "strain": "1b", "read by": "PCR", "value": "0.0057 µM"}
{"SMILES": "CC1CCC(C(=O)N(CC2CC2)c2cc(-c3ccc(NC(=O)c4ccn[nH]4)cc3)sc2C(=O)O)CC1", "strain": "1b", "read by": "replicon", "value": "<0.5 µM"}
{"SMILES": "COc1cccc2c1C=C(C(=O)N1CC3CCC(C1)N3C)Cn1c-2c(C2CCCCC2)c2ccc(C(=O)NS(=O)(=O)N(C)C)cc21", "read by": "replicon", "value": "0.001–0.5 µM"}
{"SMILES": "CC1CCC(C(=O)N(CC2CCOCC2)c2cc(-c3ccc(-c4cn5ccsc5n4)cc3)sc2C(=O)O)CC1", "strain": "1b", "read by": "replicon / ELISA", "value": "0.001–0.0049 µM"}
{"SMILES": "COc1cccc2c1C=C(C(=O)N1CC3CCC(C1)N3)Cn1c-2c(C2CCCCC2)c2ccc(C(=O)NS(=O)(=O)N(C)C)cc21", "read by": "replicon", "value": "0.001–0.5 µM"}
{"SMILES": "CC1CCC(C(=O)N(c2cc(-c3ccc(NC(=O)c4cccs4)cc3)sc2C(=O)O)C(C)C)CC1", "strain": "1b", "read by": "replicon", "value": "<0.5 µM"}
{"SMILES": "COCCN(C(=O)C1CCC(C(F)(F)F)CC1)c1cc(-c2ccc(-c3cc4ncccn4n3)cc2)sc1C(=O)O", "strain": "1a", "read by": "replicon / ELISA", "value": "0.05–0.099 µM"}
{"SMILES": "CCOc1nc(NCc2ccc(S(N)(=O)=O)cc2)nc2ccc(-c3ccc(NC(=O)N4CCOCC4)cc3)nc12", "read by": "replicon", "value": "<0.1 µM"}
{"SMILES": "CC1CCC(C(=O)N(CC2CCOCC2)c2cc(-c3ccc(-c4cn5ccccc5n4)cc3)sc2C(=O)O)CC1", "strain": "1b", "read by": "replicon / ELISA", "value": "0.005–0.0099 µM"}
{"SMILES": "CCCCOC(=O)[C@H](C)NP(=O)(/C=C/[C@@H]1C[C@@H](O)[C@H](n2cnc3c(=O)[nH]c(N)nc32)O1)N[C@@H](C)C(=O)OCCCC", "read by": "replicon", "value": "<10 µM"}
{"SMILES": "CCC[C@H](NC(=O)[C@@H]1[C@H]2CCCC[C@H]2CN1C(=O)[C@@H](NC(=O)[C@@H](NC(=O)c1cnccn1)C1CCCCC1)C(C)(C)C)C(=O)C(=O)NC1CC1", "value": "0.93 µM"}
{"SMILES": "CC1CCC(C(=O)N(c2cc(-c3ccc(NC(=O)c4cccnn4)cc3)sc2C(=O)O)C(C)C)CC1", "strain": "1b", "read by": "replicon", "value": "<0.5 µM"}
{"SMILES": "Cc1cc(-c2nnc(N[C@@H]3CCC[C@H](O)C3)o2)nc2c(C(C)(C)C)cc(OCC(F)(F)F)cc12", "strain": "2a - JFH", "read by": "luciferase", "value": "0.096 µM"}
{"SMILES": "Cc1ccc(Nc2nc(NC(C)C)c3nc(-c4ccc(F)cc4)ccc3n2)nn1", "read by": "replicon", "value": "0.25–2 µM"}
{"SMILES": "CC1CCC(C(=O)N(c2cc(-c3ccc(NC(=O)c4cscn4)c(Cl)c3)sc2C(=O)O)C(C)C)CC1", "strain": "1b", "read by": "replicon", "value": "<0.5 µM"}
{"SMILES": "COCCOc1nc(NCc2ccc(S(N)(=O)=O)cc2)nc2ccc(-c3ccc(F)c(Cl)c3)nc12", "read by": "replicon", "value": "<0.1 µM"}
{"SMILES": "Nc1ncnc2c1ncn2[C@@H]1O[C@H](/C=C/P(=O)(O)O)[C@@H](O)[C@H]1O", "read by": "replicon", "value": ">100 µM"}
{"SMILES": "CCOc1nc(NCc2ccc(NS(C)(=O)=O)cc2)nc2ccc(-c3ccc(F)cc3)nc12", "read by": "replicon", "value": "<0.1 µM"}
{"SMILES": "CC1CCC(C(=O)N(CC2CCOCC2)c2cc(-c3ccc(-c4cc5ncccc5o4)cc3)sc2C(=O)O)CC1", "strain": "1a", "read by": "replicon / ELISA", "value": "0.001–0.0049 µM"}
{"SMILES": "CC1(C)O[C@H]2O[C@H](CO)[C@H](O)[C@H]2O1", "read by": "replicon", "value": "10–100 µM"}
{"SMILES": "COC(=O)c1ccc2c(C3CCCCC3)c3n(c2c1)CC(C(=O)N1C2CCC1CN(C)C2)=Cc1c(OC(F)(F)F)cccc1-3", "read by": "replicon", "value": ">0.5 µM"}
{"SMILES": "CC(C)Nc1nc(NCc2cccnc2)nc2ccc(-c3ccc(F)cc3)nc12", "read by": "replicon", "value": "0.1–0.25 µM"}
{"SMILES": "CC1CCC(C(=O)N(CC2CCOCC2)c2cc(-c3ccc(-c4cc5ncccn5n4)cc3)sc2C(=O)O)CC1", "strain": "1b", "read by": "replicon / ELISA", "value": "0.001–0.0049 µM"}
{"SMILES": "COc1c(-c2ccc3cc(NS(C)(=O)=O)ccc3c2)cc(-n2ccc(=O)[nH]c2=O)cc1C(C)(C)C", "strain": "genotype 1b Con1", "read by": "luciferase", "conditions": "40% human plasma", "value": "0.021 µM"}
{"SMILES": "CCC[C@H](NC(=O)[C@@H]1[C@H]2CCC[C@H]2CN1C(=O)[C@@H](NC(=O)[C@@H](NC(=O)c1cnccn1)C1CCCCC1)C(C)(C)C)C(=O)C(=O)NC1CC1", "value": "0.334 µM"}
{"SMILES": "O=c1ccn([C@@H]2O[C@H](/C=C/P(=O)(O)O)C[C@H]2O)c(=O)[nH]1", "read by": "replicon", "value": ">100 µM"}

ECn is the concentration giving n% inhibition of infection, replication or growth. Two numbers with a dash give a range or band.